Measured values from several laboratories, pooled; numbers as filed in NIAID ChemDB.

All rows: growth or infection tests; agent: Mycobacterium tuberculosis

A number after MIC or MFC names an inhibition level or a share of isolates. MIC bound: limit read from a one-dose screen. Inhibition is in % at the dose shown (toxicity tests: loss of growth or viability). An empty or dashed field is not shown. Conditions beyond the fields shown may differ between rows.

structure	strain or isolate	changes	method	endpoint	dose	value
NNC(=O)c1ccncc1	Erdman	-	-	MIC	-	0.03 µg/mL
O=C(c1ccc(O)cc1)N1N=C(c2ccccc2)CC1c1ccccc1Cl	H37Ra	-	MTT	MIC	-	66 µM
C[N+](C)=c1ccc2nc3c(cc(N)c4ccccc43)oc-2c1	H37Rv	-	BACTEC	MIC bound	-	≤12.5 µg/mL
O=C1Nc2ccc(Cl)cc2[C@]12N1CSC[C@H]1[C@H](c1ccccc1Cl)[C@]21Cc2ccccc2C1=O	H37Rv	-	agar	MIC99	-	12.3 µM
NC(=O)N/N=C1\CCC(OC(=O)c2ccccc2)CC1CC(=O)O	H37Rv	-	BACTEC	MIC bound	-	>12.5 µg/mL
CCOC(=O)c1cc(-c2ccc(Cl)cc2)n(CC(=O)N/N=C/c2ccccc2)c1C	H37Rv	-	-	inhibition	6.25 µg/mL	97%
O=C1Nc2ccc(Cl)cc2[C@]12N1CSC[C@H]1[C@H](c1ccc([N+](=O)[O-])cc1)[C@]21Cc2ccccc2C1=O	H37Rv	-	agar	MIC99	-	12.1 µM
Cc1c2oc3c(C)ccc(C(=O)OCCN4CCOCC4)c3nc-2c(C(=O)OCCN2CCOCC2)c(N)c1=O	H37Rv	-	BACTEC	MIC bound	-	>12.5 µg/mL
COc1ccccc1C1CC(c2ccccc2)=NN1C(=S)Nc1ccccc1	H37Ra	-	visual reading	MBC	-	>517 µM
NNC(=O)c1ccncc1	M-3	MDR	resazurin	MIC	-	>2 µg/mL
CN(C)c1ccc(C2CC(c3ccccc3)=NN2C(=S)Nc2ccccc2)cc1	H37Ra	-	visual reading	MBC	-	>500 µM
CCCCCCCCO[C@@H]1O[C@@H](C(CO[C@@H]2O[C@@H](C(COC(C)=O)OC(C)=O)[C@H](OC(C)=O)[C@H]2OC(C)=O)OC)[C@H](OC)[C@H]1OC	H37Ra	-	-	MIC	-	>128 µg/mL
CO[C@H]1/C=C/O[C@@]2(C)Oc3c(C)c(O)c4c(O)c(c(/C=N/N5CCN(C)CC5)c(O)c4c3C2=O)NC(=O)/C(C)=C\C=C\[C@H](C)[C@H](O)[C@@H](C)[C@@H](O)[C@@H](C)[C@H](OC(C)=O)[C@@H]1C	Erdman	-	-	MIC	-	0.06 µg/mL
CCN(CC)C(=S)SCc1c(Cl)c(Cl)c(Cl)c(Cl)c1Cl	H37Rv	-	BACTEC	MIC	-	≥128 µg/mL
CCN1CCN(c2nc(Nc3ccc(C#N)c(C(F)(F)F)c3)nc(Oc3cccc4cccnc34)n2)CC1	H37Rv	-	BACTEC	MIC	-	>6.25 µg/mL
C/C(O)=c1/c(CCC(C)C)c2c(O)c3c(O)c(CCC(C)C)c(=O)cc3oc2cc1=O	H37Ra	-	resazurin	MIC	-	1.56 µg/mL
N#Cc1ccc(Nc2nc(Oc3cccc4cccnc34)nc(N3CCOCC3)n2)cc1C(F)(F)F	H37Rv	-	agar	MIC98	-	100 µg/mL
CCCCCCCCO[C@@H]1O[C@@H](C(CO[C@@H]2O[C@@H](C(O)CO)[C@H](O)[C@H]2O)OC)[C@H](OC)[C@H]1OC	H37Ra	-	-	MIC	-	>128 µg/mL
N#Cc1ccc(Nc2nc(Oc3cccc4cccnc34)nc(N3CCN(c4ccc(F)cc4)CC3)n2)cc1C(F)(F)F	H37Rv	-	BACTEC	MIC	-	>6.25 µg/mL
O=C1C(=Cc2ccc(Cl)c(Cl)c2)C([O-])=C([P+](c2ccccc2)(c2ccccc2)c2ccccc2)C([O-])=C1[P+](c1ccccc1)(c1ccccc1)c1ccccc1	H37Rv	-	BACTEC	inhibition	12.5 µg/mL	62%
NCC[C@H](O)C(=O)N[C@@H]1C[C@H](N)[C@@H](O[C@H]2O[C@H](CN)[C@@H](O)[C@H](O)[C@H]2O)[C@H](O)[C@H]1O[C@H]1O[C@H](CO)[C@@H](O)[C@H](N)[C@H]1O	H37Ra	-	-	Median MIC	-	0.7 µg/mL
O=C1C=C(NCCc2ccccc2)c2ccccc2C1=O	H37Rv	-	BACTEC	MIC	-	3.13 µg/mL
CO[C@H]1/C=C/O[C@@]2(C)Oc3c(C)c(O)c4c(O)c(c5c(c4c3C2=O)NC2(CCN(CC(C)C)CC2)N=5)=NC(=O)/C(C)=C\C=C\[C@H](C)[C@H](O)[C@@H](C)[C@@H](O)[C@@H](C)[C@H](OC(C)=O)[C@@H]1C	30 isolates/HIV+	-	-	MIC50	-	0.25 µg/mL
CC(C)N1CCN(c2nc(Nc3ccc(C#N)c(C(F)(F)F)c3)nc(Oc3cccc4cccnc34)n2)CC1	H37Rv	-	agar	MIC98	-	50 µg/mL
CN(C)c1ccc(/C=N/NC(=O)C2CCCO2)c(Cl)c1	H37Rv	-	BACTEC	MIC bound	-	>12.5 µg/mL
O=C(O)c1cn(C2CC2)c2cc(N3CCNCC3)c(F)cc2c1=O	30 isolates/HIV+	-	-	MIC50	-	4 µg/mL
CC1(C)NC(=O)C(C)(C)NC1=O	H37Rv	-	BACTEC	inhibition	12.5 µg/mL	7%
O=c1cc(C(F)(F)F)c2ccc(OCc3ccc(Br)cc3)cc2o1	H37Rv	-	fluorescence	inhibition	100 µM	43.91%
Cc1ccccc1[C@H]1[C@@H]2CSCN2[C@@]2(C(=O)Nc3ccc(Cl)cc32)[C@@]12Cc1ccccc1C2=O	H37Rv	-	agar	MIC99	-	25.7 µM
Cc1ncc([N+](=O)[O-])n1CCNC(=O)CCCCn1ccnc1[N+](=O)[O-]	H37Rv	-	resazurin	inhibition	6.25 µg/mL	-24%
O=C(N/N=C/c1ccco1)c1ccc(F)cc1	H37Rv	-	-	inhibition	6.25 µg/mL	5%
COc1cccc(/C=C/C(=O)c2c(O)c3ccccc3oc2=O)c1O	INHR-MTB	Isoniazid-resistant	agar	MIC90	-	>6.25 µg/mL
C=CC(O)C#CC#CC(O)C1OC1CCCCCCC	H37Rv	-	resazurin	MIC90	-	>60 µg/mL
CCCOc1cc2oc3cc(O)c(CCC(C)C)c(O)c3c(=O)c2c(CCC(C)C)c1OC	M8	MDR	resazurin	MIC	-	3.12 µg/mL
CN1CCC(CN2c3ccccc3Sc3ccccc32)C1	K1	-	-	MIC	-	10 µg/mL
Cc1ccccc1[C@H]1[C@@H]2CSCN2[C@@]2(C(=O)Nc3ccc([N+](=O)[O-])cc32)[C@@]12Cc1ccccc1C2=O	H37Rv	-	agar	MIC99	-	25.1 µM
COc1cccc(/C=N/NC(=O)c2cc(C)nc3ccc(Br)cc23)c1O	H37Rv	-	BACTEC	MIC bound	-	>12.5 µg/mL
O=c1oc2ccccc2c(O)c1C1=NN(c2ccccc2)C(c2ccccc2-c2ccccn2)C1	INHR-MTB	Isoniazid-resistant	agar	MIC90	-	>6.25 µg/mL
N[C@@H]1[C@@H](O)[C@H](O[C@@H]2[C@@H](O)[C@@H](O[C@@H]3O[C@H](CO)[C@@H](O)[C@H](O)[C@H]3O)[C@@H](N)C[C@H]2N)O[C@H](CO)[C@H]1O.O=S(=O)(O)O	H37Ra	-	resazurin	MIC	-	2.5 µg/mL
Cl.Cn1c2ccccc2c(=O)c2cc(NC(=O)CCCCC(=O)Nc3ccc4c(c3)c(=O)c3ccccc3n4C)ccc21	H37Rv	-	BACTEC	inhibition	12.5 µg/mL	-16%
CCC(C)C(NC=O)C(=O)N[C@@H]1C(=O)N[C@H](C(C)C)C(=O)N[C@@H](C(C)C)C(=O)N2CCC[C@@H]2C(=O)N[C@H](CC(C)C)C(=O)N2CCC[C@@H]2C(=O)OC1C	MDR	-	agar	MIC	-	16 µg/mL
CO[C@H]1/C=C/O[C@@]2(C)Oc3c(C)c(O)c4c(O)c(c(/C=N/N5CCN(C)CC5)c(O)c4c3C2=O)NC(=O)/C(C)=C\C=C\[C@H](C)[C@H](O)[C@@H](C)[C@@H](O)[C@@H](C)[C@H](OC(C)=O)[C@@H]1C	M11	-	resazurin	MIC	-	>2 µg/mL
CN1C(=O)N(C)C(O)C1O	H37Rv	-	BACTEC	inhibition	12.5 µg/mL	18%
Cc1c(C#N)c(=O)oc2cc(OCc3ccccc3)ccc12	H37Rv	-	fluorescence	inhibition	1 µM	1.72%
O=c1oc2ccccc2c(O)c1C1=NNC(c2ccc(Cl)cc2Cl)C1	INHR-MTB	Isoniazid-resistant	agar	MIC90	-	>6.25 µg/mL
CC(C)=CCc1c(O)c2c(O)c3c(CC=C(C)C)/c(=C(/C)O)c(=O)cc3oc2cc1=O	H37Ra	-	resazurin	MIC	-	6.25 µg/mL
Cc1cc2oc(=O)c(C3=NNC(c4ccc(Cl)cc4Cl)C3)c(O)c2cc1C	H37Rv	-	agar	MIC90	-	>6.25 µg/mL
O=C(N/N=C/c1ccc([N+](=O)[O-])s1)c1ccc(Cl)cc1	H37Rv	-	-	inhibition	6.25 µg/mL	96%
COc1cccc(C2CC(c3c(O)c4ccccc4oc3=O)=NN2)c1O	H37Rv	-	agar	MIC90	-	>6.25 µg/mL
COc1ccc(C2CC(c3ccccc3)=NN2C(=O)c2ccc(O)cc2)cc1	H37Ra	-	MTT	MIC	-	>535 µM
O=C1Nc2ccccc2[C@]12N1CSC[C@H]1[C@H](c1cccc(Cl)c1Cl)[C@]21Cc2ccccc2C1=O	H37Rv	-	agar	MIC	-	12.3 µM
C=CC(O)C#CC#CC(O)/C=C\CCCCCCCCOC(C)=O	H37Rv	-	resazurin	MIC90	-	25.3 µg/mL
COc1cccc(C2CC(c3c(O)c4cc(C)c(C)cc4oc3=O)=NN2)c1O	INHR-MTB	Isoniazid-resistant	agar	MIC90	-	>6.25 µg/mL
CCCCCCCCOC1O[C@@H](C(O)COC2O[C@@H](C(O)CO)[C@H](O)[C@H]2O)[C@H](O)[C@H]1O	H37Ra	-	-	MIC	-	>128 µg/mL
CN(C)c1ccc(/C=C/C/C=N/NC(=O)c2ccc(F)cc2)cc1	H37Rv	-	-	inhibition	6.25 µg/mL	23%
COc1cccc(NC(=S)/C(=C(\[O-])c2ccc([N+](=O)[O-])cc2)[n+]2ccccc2)c1	H37Rv	-	BACTEC	MIC bound	-	>12.5 µg/mL
CC(=O)c1c(OCCO)cc2oc3cc(OCCO)c(CCC(C)C)c(O)c3c(=O)c2c1CCC(C)C	H37Ra	-	resazurin	MIC	-	3.12 µg/mL
O=c1ccc2ccc(OCCN3CCC(Cc4ccccc4)CC3)cc2o1	H37Rv	-	fluorescence	inhibition	50 µM	47.29%
CCc1nc2ccc(N=NN(C)C)cc2[nH]1	H37Rv	-	resazurin	MIC bound	-	>6.25 µg/mL
CCOC(=O)c1c(C)[nH]c(/C=N\NC(=O)c2ccncc2)c1C	H37Rv	-	-	MIC	-	0.78 µg/mL
COc1c(O)cc2oc3cc(O)c(CCC(C)C)c(O)c3c(=O)c2c1CCC(C)C	H37Rv	MDR	resazurin	MIC	-	1.56 µg/mL
N#Cc1ccc(Nc2nc(Oc3cccc4cccnc34)nc(N3CCN(c4ccccc4F)CC3)n2)cc1C(F)(F)F	H37Rv	-	BACTEC	MIC	-	>6.25 µg/mL
COc1ccccc1C1CC(c2ccccc2)=NN1C(=O)c1ccc(O)cc1	H37Ra	-	MTT	MIC	-	134 µM
CC(C)CCCC(C)CCNCCSS(=O)(=O)O	H37Rv	-	resazurin	inhibition	6.25 µg/mL	15%
CC[C@@H](CO)NCCN[C@@H](CC)CO	Erdman	-	-	MIC	-	1 µg/mL
O=C1Oc2ccccc2[C@@]12[C@H](c1ccccc1)[C@H]1CSCN1[C@]21C(=O)Nc2ccc(Br)cc21	H37Rv	-	agar	MIC	-	12.5 µg/mL
NC(=O)NC(=O)c1nccnc1C(=O)O	H37Rv	-	BACTEC	MIC bound	-	>12.5 µg/mL
CCOc1cc(/C=N/NC(=O)c2ccc(F)cc2)ccc1O	H37Rv	-	-	MIC	-	>6.25 µg/mL
CN1NC(=O)SC(=O)c2ccccc2C1=O	H37Rv	-	BACTEC	MIC bound	-	>12.5 µg/mL
O=C1Nc2ccc([N+](=O)[O-])cc2[C@]12N1CSC[C@H]1[C@H](c1ccc(F)cc1)[C@]21Cc2ccccc2C1=O	H37Rv	-	agar	MIC99	-	3.1 µM
Cc1cc2oc(=O)c(C(=O)/C=C/c3ccc(O)cc3O)c(O)c2cc1C	INHR-MTB	Isoniazid-resistant	agar	MIC90	-	>6.25 µg/mL
CCCCCC/C=N/NC(=O)C(=O)N/N=C/CCCCCC	H37Rv	-	BACTEC	inhibition	12.5 µg/mL	7%
COc1ccc([C@H]2[C@@H]3CSCN3[C@@]3(C(=O)Nc4ccc([N+](=O)[O-])cc43)[C@@]23Cc2ccccc2C3=O)cc1	H37Rv	-	agar	MIC99	-	24.3 µM
C[n+]1cccc(C(=O)NN)c1.[I-]	H37Rv	-	BACTEC	MIC bound	-	>12.5 µg/mL
CC(=O)N1CCN(c2nc(Nc3ccc(C#N)c(C(F)(F)F)c3)nc(Oc3cccc4cccnc34)n2)CC1	H37Rv	-	BACTEC	MIC	-	>6.25 µg/mL
O=C(Nc1ccc(Cl)cc1)Nc1nnc2nc(C(C(=O)c3cccc([N+](=O)[O-])c3Cl)c3nc4nnc(NC(=O)Nc5ccc(Cl)cc5)n4[nH]c3=O)c(=O)[nH]n12	H37Rv	-	BACTEC	inhibition	12.5 µg/mL	26%
Cc1c(Cl)c(=O)oc2cc(OCc3ccc(Br)cc3)ccc12	H37Rv	-	fluorescence	inhibition	50 µM	3.89%
CCOC(=O)c1cc(-c2ccc(Cl)cc2)n(CC(=O)N/N=C/c2ccccc2O)c1C	H37Rv	-	-	MIC	-	>6.25 µg/mL

A second listing of 6 rows from above:

structure | strain or isolate | changes | method | endpoint | dose | value
COc1cccc(NC(=S)/C(=C(\[O-])c2ccc([N+](=O)[O-])cc2)[n+]2ccccc2)c1 | H37Rv | - | BACTEC | MIC bound | - | >12.5 µg/mL
CCCCCCCCOC1O[C@@H](C(O)COC2O[C@@H](C(O)CO)[C@H](O)[C@H]2O)[C@H](O)[C@H]1O | H37Ra | - | - | MIC | - | >128 µg/mL
Cc1c(Cl)c(=O)oc2cc(OCc3ccc(Br)cc3)ccc12 | H37Rv | - | fluorescence | inhibition | 50 µM | 3.89%
CN(C)c1ccc(/C=N/NC(=O)C2CCCO2)c(Cl)c1 | H37Rv | - | BACTEC | MIC bound | - | >12.5 µg/mL
N#Cc1ccc(Nc2nc(Oc3cccc4cccnc34)nc(N3CCN(c4ccccc4F)CC3)n2)cc1C(F)(F)F | H37Rv | - | BACTEC | MIC | - | >6.25 µg/mL
CCOc1cc(/C=N/NC(=O)c2ccc(F)cc2)ccc1O | H37Rv | - | - | MIC | - | >6.25 µg/mL